pIC50: −log10 of the molar value.
How the values were obtained:
[1] = Inhibition of Escherichia coli MurA using UNAG and PEP as substrate preincubated for 30 mins in presence of UNAG followed by PEP addition and measured after 15 mins by malachite green colorimetric assay
[2] = Inhibition of Staphylococcus aureus MurA expressed in Escherichia coli using UNAG and PEP as substrate preincubated for 30 mins in presence of UNAG followed by PEP addition and measured after 15 mins by malachite green colorimetric assay

O=C(CBr)c1ccc([N+](=O)[O-])cc1
pIC50 [1]: 5.28 | pIC50 [2]: 5.39
